In the assay the test system is Trypanosoma cruzi. Nature of the assay: Inhibition of mitochondrial membrane potential in Trypanosoma cruzi MHOM/Pe/2011/Arequipa(DTU V) epimastigote form at IC25 concentration after 72 hrs by Rho (FITC-A) staining based flow cytometric analysis. Type of assay: functional. A general note: In flow cytometry, cells or beads pass a laser one at a time.

Inhibition data for one compound are collected here from ChEMBL document CHEMBL4673334, “In Vivo Biological Evaluation of a Synthetic Royleanone Derivative as a Promising Fast-Acting Trypanocidal Agent by Inducing Mitochondrial-Dependent Necrosis” (J Nat Prod, 2020).

The compound `[C-]#N.[K+]` had an inhibition of 95.1%.

In general, inhibition refers to the change of the read-out against control, counted positive when it falls.
